Pooled drug test results. Numbers come from NIAID ChemDB, via PubChem.

Common to all: tests in culture

MIC50, MIC90 and the like: level of inhibition, or share of isolates inhibited.

compound,read by,measure,dose,strain or isolate,cell line,organism,value
Nc1nc(Cl)nc2c1ncn2[C@@H]1O[C@H](CO)[C@@H](O)[C@H]1O,cytopathic effect,EC50,,IRB-LA,MDBK,Bovine herpesvirus 1,>50 µM
C[C@@]1(O)[C@H](O)[C@@H](CO)O[C@H]1c1coc2c(N)ncnc12,MTT,inhibition,2 µg/mL,,Hep3B-T5B,Hepatitis C virus,0.13%
NC(=O)c1ncn([C@@H]2O[C@H](CO)[C@@H](O)[C@H]2O)n1,cytopathic effect,EC50,,BIL,CV-1,Measles virus,100 µg/mL
N#CC[C@H](C1CCCC1)n1cc(-c2ncnc3[nH]ccc23)cn1,p24 / ELISA,EC50,,,PBMC,SHIV,0.09 µM
C[C@H]1NCc2cc(-c3ccc4c(=O)c(C(=O)O)cn(C5CC5)c4c3OC(F)F)ccc21,,MIC90,,18 strains (beta-lactamase-negative),,Haemophilus influenzae,0.03 µg/mL
Nc1cc(Cl)nc2c1ncn2[C@@H]1O[C@H](CO)C[C@H]1O,cytopathic effect,EC50,,IRB-LA,MDBK,Bovine herpesvirus 1,>50 µM
C#CC[C@@H](C(=O)N[C@H](/C=C/C(=O)OCC)C[C@@H]1CCNC1=O)n1cccc(NC(=O)c2cc(C)on2)c1=O,cytopathic effect / XTT,EC50,,Serotype 17,H1-HELA,Rhinovirus,0.023 µM
CO/N=C1\CN(c2nc3c(cc2F)c(=O)c(C(=O)O)cn3C2CC2)CC1CN,,MIC,,305313,,Streptococcus pneumoniae,0.125 µg/mL
Cc1c(N(C)C)c(F)cn2c(=O)c(C(=O)O)cc(C3CC3)c12,,MIC,,ATCC 8043,,Enterococcus faecium,0.2 µg/mL
CC[C@H]1OC(=O)[C@H](C)[C@@H](O[C@H]2C[C@@](C)(OC)[C@@H](O)[C@H](C)O2)[C@H](C)[C@@H](O[C@@H]2O[C@H](C)C[C@H](N(C)C)[C@H]2O)[C@](C)(OC)C[C@@H](C)C(=O)[C@H](C)[C@@H](O)[C@]1(C)O,broth dilution,MIC,,X6,,Mycobacterium abscessus,1 µg/mL
Nc1ncnc2c1ncn2[C@H]1C[C@H](O)[C@@H](CO)O1,cytopathic effect,EC50,,KV1772,Sheep chondrocytes G81092,Maedi-visna virus,1.5 µM
C[C@H]1[C@H](C)CC[C@]2(C(=O)O)CC[C@]3(C)C(=CC[C@@H]4[C@@]5(C)CC[C@H](O)C(C)(C)[C@@H]5CC[C@]43C)[C@H]12,cytopathic effect,EC50,,TYPE 3,BCC-1/KMC,Adenovirus,>20 µg/mL
Nc1ncnc2c1ncn2C[C@@H](CO)OCP(=O)(O)O,cytopathic effect,EC50,,,,Punta Toro virus,>50 µM
CC[C@H](C)[C@H]1NC(=O)[C@@H](NC(=O)[C@@H](CC(C)C)NC)[C@@H](C)OC(=O)[C@H](Cc2ccc(OC)cc2)N(C)C(=O)[C@@H]2CCCN2C(=O)[C@H](CC(C)C)NC(=O)[C@@H](C)C(=O)[C@H](C(C)C)OC(=O)C[C@@H]1O,plaque count,inhibition,1.25 µg/mL,TYPE 3,LLC-MK2,Dengue virus,21.4%
Cc1cn([C@H]2C[C@H](N=[N+]=[N-])[C@@H](CO)O2)c(=O)[nH]c1=O,p24 / ELISA,EC50,,,Macrophage,SHIV,0.08 µM
CCO/N=C/c1ccc(OCCC2CCN(c3ccc(C)nn3)CC2)cc1,neutral red,EC50,,2268-CV37 (ICAM-1 receptor group 60),KB,Rhinovirus,0.082 µM
Nc1cc(OC[C@H](CO)OCP(=O)(O)O)nc(N)n1,cytopathic effect,EC50,,DAVIS,,Cytomegalovirus,139 µM
CCOC(=O)Nc1cc2c(c(N)n1)N=C1c3ccccc3CCC1O2.Cl.Cl,,inhibition,1 µg/mL,,RK-13,Encephalitozoon intestinalis,58.3%
OC[C@@H]1C[C@@H](O)[C@H](n2cnc3c(NC4CCCCC4)nc(Cl)cc32)O1,cytopathic effect,EC50,,KV1772,Sheep chondrocytes G81092,Maedi-visna virus,1.5 µM
c1cc(CN2CCCNCCNCCCNCC2)ccc1CN1CCCNCCNCCCNCC1,p24,inhibition,0.1 µM,SW26 CLADE C R5,PBMC,HIV-1,0%
N=C(N)c1ncn([C@@H]2O[C@H](CO)[C@@H](O)[C@H]2O)n1,neutral red,EC50,,A/New Caledonia/20/99,MDCK,Influenza A virus (H1N1),18 µg/mL
COc1ccc(C)c(NCc2cnc3nc(N)nc(N)c3c2C)c1,,inhibition,1 µg/mL,,RK-13,Encephalitozoon intestinalis,75.7%
Nc1ncnc2c1ncn2[C@@H]1C=C(CO)[C@@H](O)[C@H]1O,virus yield,EC90,,,MA-104,Rotavirus A,0.2 µg/mL
Nc1nc(N)c2ncn([C@H]3CO[C@@H](CO)O3)c2n1,,EC50,,WILD TYPE,Huh7,Duck hepatitis B virus,>100 µM
CCCC(N)C1CCN(c2c(F)cn3c(=O)c(C(=O)O)cc(C4CC4)c3c2C)C1,,MIC,,ATCC 8043,,Enterococcus faecium,0.02 µg/mL
CCCCCCN(CC1=C(O)c2ccccc2C(=O)C1=O)Cc1ccccc1,,EC50,,PLK,,Toxoplasma gondii,1.2 µM
CN(C)c1cc(NC(=O)CNC(C)(C)C)c(O)c2c1C[C@H]1C[C@H]3[C@H](N(C)C)C(=O)C(C(N)=O)=C(O)[C@@]3(O)C(=O)C1=C2O,broth dilution,MIC,,X21,,Mycobacterium massiliense,1 µg/mL
CCOC(=O)Nc1cc2c(c(N)n1)N=C(c1ccc(OC)c(OC)c1)CO2,,inhibition,0.01 µg/mL,,RK-13,Encephalitozoon intestinalis,10%
Nc1nc2c(ncn2[C@H]2CO[C@@H](CO)O2)c(=O)[nH]1,,EC50,,WILD TYPE,Huh7,Duck hepatitis B virus,>100 µM
CC(=O)N[C@H]1[C@H]([C@H](O)[C@H](O)CO)OC(C(=O)O)=C[C@@H]1N=C(N)N,plaque count,EC50,,A/Stockholm/24/90,MDCK,Influenza A virus,16 µM
Nc1ccn([C@H]2CC[C@@H](CO)O2)c(=O)n1,virus yield,inhibition,0.01 µM,LAV-2,U-937,HIV-2,>100%
Cc1cn([C@H]2O[C@@H](CO)[C@H](O)[C@H]2F)c(=O)[nH]c1=O,,EC50,,WILD TYPE,Huh7,Duck hepatitis B virus,40 µM
Nc1nc(Cl)nc2c1ncn2[C@H]1C[C@H](O)[C@@H](CO)O1,cytopathic effect,EC50,,KV1772,Sheep chondrocytes G81092,Maedi-visna virus,1.5 µM
COc1cc(Cc2cnc(N)nc2N)cc(OC)c1OCCCNc1ccc(S(=O)(=O)c2ccc(N)cc2)cc1,,MIC,,Isolate 5155,,Mycobacterium ulcerans,2 µg/mL
C[C@@]1(O)[C@H](O)[C@@H](CO)O[C@H]1c1c[nH]c2c(N)ncnc12,MTT,inhibition,10 µg/mL,,Hep3B-T5B,Hepatitis C virus,1.01%
CN[C@@H]1CN(c2c(F)cn3c(=O)c(C(=O)O)cc(C4CC4)c3c2C)CC12CC2,,MIC,,21 strains (vancomycin-susceptible),,Enterococcus faecium,1 µg/mL
O=C(O)/C=C/c1ccc(O)c(O)c1,cytopathic effect,EC50,,TYPE 3,BCC-1/KMC,Adenovirus,14.2 µg/mL
CCCN(CCC)c1c([N+](=O)[O-])cc(S(N)(=O)=O)cc1[N+](=O)[O-],,EC50,,RH,,Toxoplasma gondii,0.3 µM
OC[C@@H]1C[C@@H](O)[C@H](n2cnc3c(NC4CCCCCC4)ccnc32)O1,cytopathic effect,EC50,,IRB-LA,MDBK,Bovine herpesvirus 1,>50 µM
COc1ccc(C)cc1NCc1cnc2nc(N)nc(N)c2c1C,,inhibition,0.01 µg/mL,,RK-13,Encephalitozoon intestinalis,41.6%
OC[C@@H]1CC[C@H](n2cnc3c(NC4CCCCCC4)ncnc32)O1,cytopathic effect,EC50,,IRB-LA,MDBK,Bovine herpesvirus 1,>50 µM
O=C(O)[C@H]1O[C@@H](Oc2cc3oc(-c4ccccc4)cc(=O)c3c(O)c2O)[C@H](O)[C@@H](O)[C@@H]1O,cytopathic effect,EC50,,TYPE 3,BCC-1/KMC,Adenovirus,>50 µg/mL
C[C@H](Cn1cnc2c(N)ncnc21)OCP(=O)(O)O,cytopathic effect,EC50,,,,Punta Toro virus,>525 µM
COc1cc(/C=C/C(=O)O)ccc1O,cytopathic effect,EC50,,TYPE 11,BCC-1/KMC,Adenovirus,23.3 µg/mL
O=C(Nc1ncc([N+](=O)[O-])s1)c1ccccc1O,,inhibition,10 µg/mL,,RK-13,Vittaforma corneae,89.7%
Cc1c(N2C[C@@H](N)C3(CC3)C2)c(F)cn2c(=O)c(C(=O)O)cc(C3CC3)c12,,MIC,,ATCC 8043,,Enterococcus faecium,0.02 µg/mL
CCOc1cc(Cc2cnc(N)nc2N)cc(OCC)c1-n1cccc1,,MBC,,Isolate 5155,,Mycobacterium ulcerans,0.5 µg/mL
O=c1cc(-c2ccc(O)c(O)c2)oc2cc(O)cc(O)c12,cytopathic effect,EC50,,TYPE 8,BCC-1/KMC,Adenovirus,>25 µg/mL
Nc1ncnc2c1ncn2[C@@H]1C=C[C@@H](O)[C@H]1O,cytopathic effect,EC50,,,VERO,Semliki Forest virus,>400 µg/mL
Nc1nc(Cl)nc2c1ncn2[C@H]1CC[C@@H](CO)O1,cytopathic effect,EC50,,KV1772,Sheep chondrocytes G81092,Maedi-visna virus,0.15 µM
Nc1nccc2c1ncn2[C@@H]1C[C@H](CO)[C@@H](O)[C@H]1O,cytopathic effect,EC50,,,HK,Vesicular stomatitis virus,0.4 µg/mL
CCOC(=O)Nc1cc2[nH]c(=O)c(-c3ccccc3)nc2c(N)n1,,inhibition,1 µg/mL,,RK-13,Encephalitozoon intestinalis,61.4%

The last 7 rows once more:

compound	read by	measure	dose	strain or isolate	cell line	organism	value
Cc1c(N2C[C@@H](N)C3(CC3)C2)c(F)cn2c(=O)c(C(=O)O)cc(C3CC3)c12		MIC		ATCC 8043		Enterococcus faecium	0.02 µg/mL
CCOc1cc(Cc2cnc(N)nc2N)cc(OCC)c1-n1cccc1		MBC		Isolate 5155		Mycobacterium ulcerans	0.5 µg/mL
O=c1cc(-c2ccc(O)c(O)c2)oc2cc(O)cc(O)c12	cytopathic effect	EC50		TYPE 8	BCC-1/KMC	Adenovirus	>25 µg/mL
Nc1ncnc2c1ncn2[C@@H]1C=C[C@@H](O)[C@H]1O	cytopathic effect	EC50			VERO	Semliki Forest virus	>400 µg/mL
Nc1nc(Cl)nc2c1ncn2[C@H]1CC[C@@H](CO)O1	cytopathic effect	EC50		KV1772	Sheep chondrocytes G81092	Maedi-visna virus	0.15 µM
Nc1nccc2c1ncn2[C@@H]1C[C@H](CO)[C@@H](O)[C@H]1O	cytopathic effect	EC50			HK	Vesicular stomatitis virus	0.4 µg/mL
CCOC(=O)Nc1cc2[nH]c(=O)c(-c3ccccc3)nc2c(N)n1		inhibition	1 µg/mL		RK-13	Encephalitozoon intestinalis	61.4%

Neighbouring rows are from separate reports. ECn: concentration that inhibits the pathogen or its effect by n%. Blank or dashed fields: not listed here. Inhibition is in % at the dose shown (toxicity tests: loss of growth or viability).